PubChem BioAssay AID624099 – ICCB-Longwood, 2012
Purpose: 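Host factors E2 relies on to silence an HPV18 LCR reporter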 (primary screen). Cells: human C33A cervical carcinoma cells (HPV-negative) stably expressing BPV1 E2 and an HPV18 LCR luciferase reporter. Reagent: siRNA pool against human genes, 40 nM. Duration: 72 h. Measurement: 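HPV18 LCR reporter light per well, converted to plate-wise z-scores that exclude control wells, and averaged over triplicate plates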. Direction: mean z-score and z-score: higher = stronger reporter signal, weaker E2 silencing. Hit rule: 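Mean z ≥ 2 together with z ≥ 2 in two or more of the three replicates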.
The whole screen tested about 21,000 reagents; this is an unselected part. 497 of them (2.4%) count as active. 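Higher z means weaker E2 silencing; only reporter increases were scored, and knock-downs that hurt cell survival may mask genuine repressor factors.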

| target gene | mean z-score | z-score, replicate A | z-score, replicate B | z-score, replicate C | call |
| --- | --- | --- | --- | --- | --- |
| LOC392791 (retired record) | -0.25 | -0.16 | -0.35 | -0.23 | inactive |
| MYOT (myotilin) | 0.02 | 0.04 | -0.18 | 0.2 | inactive |
| PTRH1 (peptidyl-tRNA hydrolase 1 homolog) | -0.75 | -0.94 | -0.51 | -0.8 | inactive |
| CARM1 (coactivator associated arginine methyltransferase 1) | -0.42 | -0.36 | -0.47 | -0.43 | inactive |
| MCTP1 (multiple C2 and transmembrane domain containing 1) | 1.01 | 0.63 | 1.74 | 0.67 | inactive |
| UFM1 (ubiquitin fold modifier 1) | 0.23 | 0.38 | 0.03 | 0.29 | inactive |
| MUC2 (mucin 2, oligomeric mucus/gel-forming) | 1.04 | 1.17 | 0.98 | 0.97 | inactive |
| B3GAT3 (beta-1,3-glucuronyltransferase 3) | -0.38 | -0.35 | -0.39 | -0.41 | inactive |
| MAS1 (MAS1 proto-oncogene, G protein-coupled receptor) | 0.2 | 0.3 | 0 | 0.3 | inactive |
| DEPDC4 (DEP domain containing 4) | 1.77 | 2.07 | 1.61 | 1.63 | inactive |
| STPG1 (sperm tail PG-rich repeat containing 1) | 1.4 | 1.16 | 1.26 | 1.78 | inactive |
| RELA (RELA proto-oncogene, NF-kB subunit) | 1.19 | 1.3 | 1.24 | 1.03 | inactive |
| CEP162 (centrosomal protein 162) | -0.3 | -0.36 | -0.52 | -0.01 | inactive |
| RNF113B (ring finger protein 113B) | 0.94 | 1.01 | 1.01 | 0.79 | inactive |
| APRG1 (APRG1 tumor suppressor candidate) | -0.35 | -0.3 | -0.45 | -0.3 | inactive |
| TGM4 (transglutaminase 4) | 0.18 | 0.44 | 0.11 | 0 | inactive |

Entries listed so far whose gene name starts with C or c (2):
| target gene | mean z-score | z-score, replicate A | z-score, replicate B | z-score, replicate C | call |
| --- | --- | --- | --- | --- | --- |
| CARM1 (coactivator associated arginine methyltransferase 1) | -0.42 | -0.36 | -0.47 | -0.43 | inactive |
| CEP162 (centrosomal protein 162) | -0.3 | -0.36 | -0.52 | -0.01 | inactive |

More results follow:
| target gene | mean z-score | z-score, replicate A | z-score, replicate B | z-score, replicate C | call |
| --- | --- | --- | --- | --- | --- |
| AGAP11 (ArfGAP with GTPase domain, ankyrin repeat and PH domain 11) | 0.63 | 0.46 | 0.65 | 0.77 | inactive |
| ZNF91 (zinc finger protein 91) | 1.14 | 1.2 | 1 | 1.21 | inactive |
| HLA-DQA1 (major histocompatibility complex, class II, DQ alpha 1) | 0.16 | 0.06 | 0.09 | 0.33 | inactive |
| QRSL1 (glutaminyl-tRNA amidotransferase subunit QRSL1) | -1.3 | -1.43 | -1.04 | -1.45 | inactive |
| SEC24B (SEC24 homolog B, COPII component) | -1.71 | -1.63 | -1.73 | -1.76 | inactive |
| ZNF229 (zinc finger protein 229) | -0.4 | -0.33 | -0.6 | -0.28 | inactive |
| PTTG3P (pituitary tumor-transforming 3, pseudogene) | -0.7 | -0.73 | -0.6 | -0.76 | inactive |
| ZNF585B (zinc finger protein 585B) | -0.11 | 0.07 | -0.2 | -0.21 | inactive |
| SERPINA13P (serpin family A member 13, pseudogene) | 0.63 | 0.66 | 0.52 | 0.71 | inactive |
| SPATS2L (spermatogenesis associated serine rich 2 like) | -1.19 | -1.1 | -1.29 | -1.17 | inactive |
| RPL10P13 (ribosomal protein L10 pseudogene 13) | -0.03 | -0.02 | 0 | -0.07 | inactive |
| HOGA1 (4-hydroxy-2-oxoglutarate aldolase 1) | -1.46 | -1.2 | -1.48 | -1.69 | inactive |
| EDRF1-DT (EDRF1 divergent transcript) | 3.3 | 3.56 | 3.51 | 2.83 | active |
| FRMPD2 (FERM and PDZ domain containing 2) | -0.01 | 0 | -0.28 | 0.24 | inactive |
| GAGE6 (G antigen 6) | -1.35 | -1.51 | -1.17 | -1.38 | inactive |
| LTN1 (listerin E3 ubiquitin protein ligase 1) | -0.36 | -0.59 | -0.25 | -0.23 | inactive |
| CFAP221 (cilia and flagella associated protein 221) | -0.11 | -0.29 | -0.16 | 0.11 | inactive |
| TNS3 (tensin 3) | -0.1 | -0.16 | 0.02 | -0.15 | inactive |
| LINC00303 (long independently transcribed non-coding RNA 303) | 0.52 | 0.46 | 0.57 | 0.53 | inactive |
| NAGA (alpha-N-acetylgalactosaminidase) | 1.21 | 1.17 | 1.44 | 1.02 | inactive |
| ESYT2 (extended synaptotagmin 2) | -1.22 | -0.98 | -1.28 | -1.41 | inactive |
| RPS20 (ribosomal protein S20) | -1.85 | -1.99 | -1.98 | -1.59 | inactive |
| SASH3 (SAM and SH3 domain containing 3) | 0.03 | 0.03 | 0.06 | 0.01 | inactive |
